Results of unrelated studies side by side (data: NIAID ChemDB).

Common to all: tests in culture; agent: Hepatitis C virus; measure: EC50

ECn: concentration that inhibits the pathogen or its effect by n%. Conditions beyond the fields shown may differ between rows.

{"SMILES": "O=C(O)C1C(c2ccc[nH]c2=O)c2c(cc(F)c3ccoc23)N1Cc1cc2c(=O)[nH]cnc2cc1F", "method": "PCR", "cell line": "Replicon cells", "value": "0.006 µM"}
{"SMILES": "CCOC(=O)C12CC1/C=C\\CCCCC[C@@H](CC(=O)N1CCCCC1)C(=O)N1C[C@H](Oc3cc(-c4ccccc4)nc4cc(OC)ccc34)C[C@H]1C(=O)N2", "method": "replicon", "value": ">10 µM"}
{"SMILES": "COc1nc(N)nc2c1ncn2[C@@H]1O[C@H](COP(=O)(N[C@@H](C)C(=O)OC(C)C)Oc2ccccc2)[C@@H](O)[C@@]1(C)F", "method": "replicon", "strain": "2a", "conditions": "132 d", "value": "0.22 µM"}
{"SMILES": "CNC(=O)c1c(-c2ccc(F)cc2)oc2cc(NCCOC)c(OC(C)C)cc12", "method": "replicon", "cell line": "Huh7", "value": "<1 µM"}
{"SMILES": "CC1(C)CC(=O)C2=C(C1)Nc1c(O)cccc1N(C(=O)c1cncs1)C2c1ccc(OCc2ccccc2)cc1F", "method": "luciferase / reporter gene / replicon", "strain": "1b", "value": "4.31 µM"}
{"SMILES": "CCCCCCCCCN1CCN(Cc2c(O)cc3c(c2O)-c2cc(ccc2O)[C@H]2NC(=O)[C@@H]4NC(=O)[C@H]5NC(=O)[C@@H](Cc6ccc(c(Cl)c6)Oc6cc4cc(c6O)Oc4ccc(cc4Cl)[C@@H](O)[C@H](NC2=O)C(=O)N[C@@H]3C(=O)O)NC(=O)[C@H](N)c2ccc(O)c(c2)Oc2cc(O)cc5c2)CC1", "method": "luciferase", "strain": "Huh 9-13", "value": "17 µM"}
{"SMILES": "Cc1ccc(C(=O)Nc2ccc(N3CCOCC3)cc2)cc1-c1ccc(C(=O)Nc2ccc(CN3CCN(S(C)(=O)=O)CC3)cc2)cc1", "method": "replicon", "strain": "1b", "value": "0.26 µM"}
{"SMILES": "OCc1nnc(-c2ccc(N3CCC(Oc4cc(F)ccc4Br)CC3)nn2)o1", "method": "PCR", "strain": "GT1b", "cell line": "Huh7", "value": "0.00032 µM"}
{"SMILES": "NC(=O)c1ccc(F)c(Cn2c(C(=O)NS(=O)(=O)C3CC3)c(-c3ccc[nH]c3=O)c3c4c(c(F)cc32)-c2ccoc2-4)c1", "method": "PCR", "cell line": "Replicon cells", "value": "0.01 µM"}
{"SMILES": "COc1ccc2c(O[C@@H]3C[C@H]4C(=O)NC5(C(=O)O)CC5/C=C\\CCCCC[C@@H](CC(=O)N5CCCCC5)C(=O)N4C3)cc(-c3ccccc3)nc2c1", "method": "replicon", "value": "<100 µM"}
{"SMILES": "CC(=O)c1ccc(F)c(CN2c3cc(F)c4ccoc4c3C(c3ccc[nH]c3=O)C2C(=O)O)c1", "method": "PCR", "cell line": "Replicon cells", "value": "0.07 µM"}
{"SMILES": "C/C(=C\\c1cn(C(=O)OCc2ccccc2)c2ccccc12)C(=O)Nc1ccc(C(C)(C)C)cc1", "method": "luciferase / reporter gene", "strain": "2a J6/JFH-1", "cell line": "Huh7.5", "value": ">100 µM"}
{"SMILES": "CNC(=O)c1c(-c2ccc(F)cc2)oc2cc(NS(C)(=O)=O)c(OC(C)C)cc12", "method": "replicon", "cell line": "Huh7", "value": "<1 µM"}
{"SMILES": "C=CC1CC1(NC(=O)[C@@H]1C[C@@H](Oc2cc(-c3ccccc3)nc3cc(OC)ccc23)CN1C(=O)[C@@H](CC(=O)N1CCCC1)C(C)(C)C)C(=O)O", "method": "replicon", "value": ">10 µM"}
{"SMILES": "CC1(C)CC(=O)C2=C(C1)Nc1c(O)cccc1N(C(=O)C1CCCC1)[C@H]2c1ccc(OCc2ccccc2)cc1F", "method": "luciferase / reporter gene / replicon", "strain": "1b", "value": "0.23 µM"}
{"SMILES": "Cc1ccc(NC(=O)c2ccc(N3CCOCC3)cc2)cc1-c1ccc(C(=O)Nc2ccc(CN3CCS(=O)(=O)CC3)cc2)cc1", "method": "replicon", "strain": "1b", "value": "0.22 µM"}
{"SMILES": "Cc1ccccc1NC(=O)CCC(=O)N1c2cccc(O)c2NC2=C(C(=O)CC(C)(C)C2)C1c1ccc(OCc2ccccc2)cc1F", "method": "luciferase / reporter gene / replicon", "strain": "1b", "value": "3.43 µM"}
{"SMILES": "CNC(=O)c1c(-c2ccc(F)cc2)oc2cc(N(C)S(C)(=O)=O)c(OCc3ccc4c(c3)C(=O)OC(C)(C)O4)cc12", "method": "replicon", "cell line": "Huh7", "value": "<1 µM"}
{"SMILES": "O=C(O)C1C(c2ccc[nH]c2=O)c2c(cc(F)c3ccoc23)N1Cc1cc2[nH]c(=O)oc2cc1F", "method": "PCR", "cell line": "Replicon cells", "value": "2 µM"}
{"SMILES": "CC1(C)CC(=O)C2=C(C1)Nc1c(O)cccc1N(C(=O)c1csc(Br)n1)C2c1ccc(OCc2ccccc2)cc1F", "method": "luciferase / reporter gene / replicon", "strain": "1b", "value": "0.94 µM"}
{"SMILES": "Cc1ccc(C(=O)Nc2ccc(N3CCOCC3)cc2)cc1-c1ccc(C(=O)Nc2ccc(CN3CCS(=O)(=O)CC3)cc2)cc1", "method": "replicon", "strain": "1b", "value": "0.3 µM"}
{"SMILES": "COc1cc2c(C(=O)NC(C)C)c(-c3ccc(F)cc3)oc2cc1-c1c(C)noc1C", "method": "replicon", "cell line": "Huh7", "value": ">30 µM"}
{"SMILES": "C/C(=C\\c1cn(CCN2CCOCC2)c2ccccc12)C(=O)Nc1ccc(C(C)(C)C)cc1", "method": "luciferase / reporter gene", "strain": "2a J6/JFH-1", "cell line": "Huh7.5", "value": "7.9 µM"}
{"SMILES": "CNC(=O)c1c(-c2ccncc2)oc2ccc(F)cc12", "method": "replicon", "cell line": "Huh7", "value": ">30 µM"}
{"SMILES": "C/C(=C\\c1cn(C)c2ccc(C#N)cc12)C(=O)Nc1ccc(C(C)(C)C)cc1", "method": "luciferase / reporter gene", "strain": "2a J6/JFH-1", "cell line": "Huh7.5", "value": "9.5 µM"}
{"SMILES": "OCc1nnc(-c2ccc(N3CCC(Oc4ccccc4C(F)(F)F)CC3)nn2)o1", "method": "PCR", "strain": "GT1b", "conditions": "50% human serum", "cell line": "Huh7", "value": ">40 µM"}
{"SMILES": "CNC(=O)c1c(-c2ccc(F)cc2)oc2cc(N(C)S(C)(=O)=O)c(OCc3ccc(C(=O)OC)cc3)cc12", "method": "replicon", "cell line": "Huh7", "value": "<1 µM"}
{"SMILES": "Cc1ccc(C(=O)NCc2ccccc2)cc1-c1ccc(C(=O)Nc2ccc(CN3CCS(=O)(=O)CC3)cc2)cc1", "method": "replicon", "strain": "1b", "value": "0.8 µM"}
{"SMILES": "COc1ccc2c(c1)c(/C=C(\\C)C(=O)Nc1ccc(C(C)(C)C)cc1)cn2CCN(C)C", "method": "luciferase / reporter gene", "strain": "2a J6/JFH-1", "cell line": "Huh7.5", "value": ">100 µM"}
{"SMILES": "CNC(=O)c1c(-c2ccc(F)cc2)oc2cc(-c3c(C)n[nH]c3C)c(OC)cc12", "method": "replicon", "cell line": "Huh7", "value": "<1 µM"}
{"SMILES": "Nc1nc2cc(F)c(CN3c4cc(F)c5ccoc5c4C(c4ccc[nH]c4=O)C3C(=O)O)cc2c(=O)[nH]1", "method": "PCR", "cell line": "Replicon cells", "value": "0.007 µM"}
{"SMILES": "Nc1nc2cnc(N3CCC(Oc4cc(F)ccc4Br)CC3)nc2s1", "method": "PCR", "strain": "GT1b", "cell line": "Huh7", "value": "0.0083 µM"}
{"SMILES": "Fc1ccccc1-c1nc2cc[n+](Cc3ccc(-c4ccc(C(F)(F)F)cc4C(F)(F)F)nn3)cc2[nH]1", "method": "luciferase", "cell line": "JFH1", "value": "22.05 µM"}
{"SMILES": "C=CC1CC1(NC(=O)[C@@H]1C[C@@H](Oc2cc(-c3ccccc3)nc3cc(OC)ccc23)CN1C(=O)[C@@H](CC(=O)N1CCCCC1C(N)=O)C(C)(C)C)C(=O)OCC", "method": "replicon", "value": ">10 µM"}
{"SMILES": "C/C(=C\\c1cn(Cc2ccccc2)c2ccc(C#N)cc12)C(=O)Nc1ccc(C(C)(C)C)cc1", "method": "luciferase / reporter gene", "strain": "2a J6/JFH-1", "cell line": "Huh7.5", "value": ">100 µM"}
{"SMILES": "Cc1ccc(C(=O)NCCC(C)C)cc1-c1ccc(C(=O)Nc2ccc(CN3CCS(=O)(=O)CC3)cc2)cc1", "method": "replicon", "strain": "1b", "value": "0.9 µM"}
{"SMILES": "CC(C)C(=O)N1c2cccc(O)c2NC2=C(C(=O)CC(C)(C)C2)C1c1ccc(OCc2cccc(F)c2)cc1F", "method": "luciferase / reporter gene / replicon", "strain": "1b", "value": "1.53 µM"}
{"SMILES": "CC(C)CC[C@@]1(C)C(=O)C(C2=NS(=O)(=O)c3cc(NS(C)(=O)=O)ccc3N2)=C(O)c2ccccc21", "method": "luciferase", "strain": "1b", "cell line": "Huh7", "value": "0.0037 µM"}

A second listing of 2 rows from above:

CC1(C)CC(=O)C2=C(C1)Nc1c(O)cccc1N(C(=O)c1cncs1)C2c1ccc(OCc2ccccc2)cc1F ; method: luciferase / reporter gene / replicon ; strain: 1b ; value: 4.31 µM
CNC(=O)c1c(-c2ccncc2)oc2ccc(F)cc12 ; method: replicon ; cell line: Huh7 ; value: >30 µM